According to PubChem BioAssay AID651610 (Broad Institute, 2012):
Only a part is listed here, and it is no random draw. Active and inactive are the calls of the source.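 How the source made its calls: active means mean replicate inhibition score of at least 50 and every replicate individually at or above 50; inconclusive means only one of the two criteria met; inactive means mean below 50 and not all replicates reaching 50.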

assay: blockers of JRFL envelope-mediated fusion – HeLa-JRFL effector, CEM21 target cells, luciferase, primary screen (AID 651610); conditions: HeLa-JRFL Env/CEM21 cell fusion, at 12.3 µM, active compounds read high;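 further: 0% = plate neutral controls and 100% = maraviroc near 300 nM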

Compound	inhibition
Nc1ccc(CCCCOc2ccccc2)cc1.O=[N+]([O-])c1cc([N+](=O)[O-])c(O)c([N+](=O)[O-])c1	inactive: 0.247%
CCOP(=O)(NC(=NC(C)c1ccccc1)NC(C)c1ccccc1)OCC (centres undefined)	inactive: -5.93%
CCC1=CC2Cc3nc4ccc(Cl)cc4c(N)c3C(C1)C2 (centres undefined)	inactive: -6.22%
O=P1(Nc2ccccn2)COc2ccccc2OC1	inactive: -128%
O=C(O)C(O)c1ccc(N(CCCl)CCCl)cc1.c1ccncc1 (centres undefined)	inactive: 20.6%
CCOP(=O)(Nc1ccc(C)cn1)OCC	inactive: 2.59%
CN(CCCl)Cc1cc(Cl)c(NC2=NCCN2)c(Cl)c1	inactive: 14%
Cc1ccc(S(=O)(=O)N(CCCN)CCCc2c(C)nc(N)[nH]c2=O)cc1.O=[N+]([O-])c1cc([N+](=O)[O-])c(O)c([N+](=O)[O-])c1	inactive: 10.8%
CC(C)/C=N\N=C(\N)N[N+](=O)[O-]	inactive: -13.3%
Cc1nc2ccc3ccccc3c2s1.O=[N+]([O-])c1cc([N+](=O)[O-])c(O)c([N+](=O)[O-])c1	inactive: -283%
O=[N+]([O-])c1cc([N+](=O)[O-])c(-c2cnn(-c3ccccc3)c2)c([N+](=O)[O-])c1	inactive: -2.83%
COc1ccccc1CNC(=O)COC(=O)C(O)(c1ccccc1)c1ccccc1	inactive: -9.75%
CCOC(=O)C(CC)C1=NC(C)(C)Cc2ccccc21.O=[N+]([O-])c1cc([N+](=O)[O-])c(O)c([N+](=O)[O-])c1 (centres undefined)	inactive: 11.5%
CN(C)C1(CNC(=O)c2ccc(S(C)(=O)=O)cc2)CCCCC1	inactive: 5.87%
O=[N+]([O-])c1cc([N+](=O)[O-])c(Nc2nnnn2CCO)c([N+](=O)[O-])c1	inactive: 7.55%
O=C(/C=C/c1ccccc1)OC1CN2CCC1CC2 (centres undefined)	inactive: 14.5%
Cc1ccc(C(=O)OC2CN3CCC2CC3)cc1 (centres undefined)	inactive: -3.83%
CC1CCC(C(C)C)C(OP(=O)(Nc2ccccn2)c2ccccc2)C1 (centres undefined)	inactive: 30.4%
CCCOc1ccc(NP(C)(=O)Oc2ccc(Cl)cc2)cc1 (centres undefined)	inactive: 5.82%
CP(=O)(Nc1ccc(SC(F)(F)F)cc1)Oc1ccccc1 (centres undefined)	inactive: 27%
Nc1cccc([As](=O)(O)c2ccccc2)c1	inactive: 5.02%
COc1ccc(-c2ccccn2)cc1.O=[N+]([O-])c1cc([N+](=O)[O-])c(O)c([N+](=O)[O-])c1	inactive: -32.3%
Cc1ccc(OCC(=O)OC2CN3CCC2CC3)cc1 (centres undefined)	inactive: -113%
O=[As](O)(c1cccs1)c1cccs1	inactive: 14.4%
NS(=O)(=O)c1cccc(NC(=O)COC(=O)C(O)(c2ccccc2)c2ccccc2)c1	inactive: -0.175%
O=P1(Nc2ccc(Br)cn2)COc2ccccc2OC1	inactive: -9.28%

Compound	inhibition
CN1CCCCC1COC(=O)C1(O)c2ccccc2CCc2ccccc21 (centres undefined)	inactive: 0.559%
COc1ccccc1OP(C)(=O)Nc1c(C)cccc1C (centres undefined)	inactive: -69.7%
O=P1(Nc2ncccn2)COc2ccccc2OC1	inactive: -12.3%
O=C(O)COc1ccc([As](=O)(O)O)cc1[N+](=O)[O-]	inactive: 1.94%
Nc1ccccc1[As](=O)(O)c1ccccc1	inactive: 3.51%
O=P(Nc1nccs1)(Oc1ccccc1)Oc1ccccc1	inactive: -3.02%
O=C(O)c1cccc(Nc2c([N+](=O)[O-])cc([N+](=O)[O-])cc2[N+](=O)[O-])c1	inactive: -3.27%
CN(C(=O)Cc1ccccc1)[C@@H]1CC[C@]2(CCCO2)C[C@H]1N1CCCC1	inactive: -160%
N#CCCN(C(=O)COC(=O)C(O)(c1ccccc1)c1ccccc1)c1ccc(F)cc1	inactive: -26.1%
CC1=NCCc2c1[nH]c1ccccc21.O=[N+]([O-])c1cc([N+](=O)[O-])c(O)c([N+](=O)[O-])c1	inactive: 3.07%
CN(C(=O)Cc1ccc(Cl)c(Cl)c1)[C@H]1CC[C@@]2(CCCO2)C[C@@H]1N1CCCC1	inactive: 7.28%
O=[N+]([O-])c1ccc2c(c1)nnn2O	inactive: -5.9%
CN(C)C(=O)c1cc([N+](=O)[O-])cc2c1-c1c(cc([N+](=O)[O-])cc1[N+](=O)[O-])C2=O	inactive: -65.9%
NC(=O)Nc1ccc([As](=O)(O)O)cc1	inactive: -1.72%
O=[As](O)(c1cccc(O)c1)c1cccc(O)c1	inactive: 1.09%
CCOC(=O)c1ccc(NP(C)(=O)Oc2cc(C)cc(C)c2)cc1 (centres undefined)	inactive: -12.3%
O=C(OC1CN2CCC1CC2)c1ccc(Cl)cc1 (centres undefined)	inactive: -5.87%
COc1ccccc1OP(C)(=O)Nc1cccc(Br)c1 (centres undefined)	inactive: 30.8%
CS(=O)(=O)c1ccc(Cl)c(NC(=O)COC(=O)C(O)(c2ccccc2)c2ccccc2)c1	inactive: 9%
O=[As](O)(O)c1cccnc1	inactive: 8.28%
COc1cc(C(=O)NCC2(N3CCOCC3)CCCCC2)cc(Cl)c1OC(C)C	inactive: 7.07%
CCOP(=O)(Nc1cccc2ccccc12)OCC	inactive: 28.6%
Cc1ccc(NCCc2c([N+](=O)[O-])cc([N+](=O)[O-])cc2[N+](=O)[O-])cc1	inactive: -1.02%
Nc1cccc2c([As](=O)(O)O)cccc12	inactive: 8.52%
CP(=O)(Nc1cccc(Br)c1)Oc1ccccc1 (centres undefined)	inactive: 3.45%
CCCOP(=S)(Nc1nc(N)cc(=O)[nH]1)OCCC	inactive: -16.2%

Compound	inhibition
O=P1(N(CCCl)CCCl)Nc2ccccc2N1	inactive: 11.9%
O=P1(N(CCCl)CCCl)OCCCN1CCCl (centres undefined)	inactive: -21.7%
COc1cc(I)ccc1[As](=O)(O)O	inactive: 6.13%
COc1ccc2nc(NP(=O)(c3ccccc3)c3ccccc3)sc2c1	inactive: 6.24%
Cc1c2c(nc3ccccc13)SC(C(Cl)Cl)C2 (centres undefined)	inactive: -1.26%
Cc1cc(=O)[nH]c(N[N+](=O)[O-])n1	inactive: 0.086%
CCN(CC)CCCOC(=O)C(O)(c1ccccc1)c1ccccc1	inactive: 10.1%
O=[N+]([O-])c1cc(Oc2ccc([N+](=O)[O-])cc2C(F)(F)F)cc([N+](=O)[O-])c1	inactive: 0.982%
COc1ccccc1-c1ccccn1.O=[N+]([O-])c1cc([N+](=O)[O-])c(O)c([N+](=O)[O-])c1	inactive: 9.96%
COc1ccc(N/C(=N/P(=O)(N2CCOCC2)N2CCOCC2)N2CCOCC2)cc1	inactive: 11%
Cc1cccc(C)c1OP(C)(N)=O (centres undefined)	inactive: -9.93%
Cc1ccc(OP(=O)(Nc2ccc([N+](=O)[O-])cn2)Oc2ccc(C)cc2)cc1	inactive: -1.32%
[N-]=[N+]=NC1CCCCC1NC(=O)c1cc([N+](=O)[O-])cc([N+](=O)[O-])c1 (centres undefined)	inactive: -0.433%
O=[N+]([O-])c1ccc2c(c1)C=Nc1ccccc1O2	inactive: -13%
Cc1ccc2nc3c(c(C)c2c1)CC(C(Cl)Cl)S3 (centres undefined)	inactive: -9.17%
O=[N+]([O-])c1cc([N+](=O)[O-])c(Nc2cccnc2)c([N+](=O)[O-])c1	inactive: 23.4%
O=[N+]([O-])c1ccc(-c2cc([N+](=O)[O-])c(O)c([N+](=O)[O-])c2)cc1	inactive: -20.2%
COc1cc(C(=O)NCC2(N3CCOCC3)CCCCC2)ccc1OCC(C)C	inactive: 8.62%
O=[As](O)(c1ccc(O)cc1)c1ccccc1O	inactive: -9.13%
C[As](=O)(O)c1cccc(C(=O)O)c1	inactive: -10.8%
COc1ccc(OP(C)(=O)Nc2cccc(F)c2)cc1 (centres undefined)	inactive: -17.9%
CC(C)NC(=O)NP(=O)(Oc1ccccc1)Oc1ccccc1	inactive: -52.1%
COc1ccccc1OP(C)(=O)Nc1cc(Cl)ccc1C (centres undefined)	inactive: 28.1%
O=C(OC1CN2CCC1CC2)c1cccc2[nH]cnc12 (centres undefined)	inactive: -6.73%
Cc1cc(C)cc(OP(C)(N)=O)c1 (centres undefined)	inactive: 2.54%
ClCCSc1nnc(-c2cccnc2)o1	inactive: -148%

Compound	inhibition
CCOC(=O)c1ccc(NP(C)(=O)Oc2ccccc2)cc1 (centres undefined)	inactive: 11.7%
COC(=O)C1(C)COP(=O)(N2CCCCCC2)OC1 (centres undefined)	inactive: -13.1%
Cc1ccc(NP(C)(=O)Oc2ccccc2)c(C)c1 (centres undefined)	inactive: -14.2%
CC(C)c1ccc(OP(=O)(Nc2ccccn2)Oc2ccccc2F)cc1 (centres undefined)	inactive: -11.2%
Cc1cc(SC(NC(=O)c2ccccc2)C(Cl)(Cl)Cl)nc(C(C)C)n1 (centres undefined)	inactive: -1.82%
CCCCOc1ccc(C(=O)NCC2(N3CCCCC3)CCCCC2)cc1OC	inactive: 17.5%
O=C(O)C(=O)c1ccc(N(CCCl)CCCl)cc1.c1ccc(Nc2ccccc2)cc1	inactive: 36.1%
CCOC(=O)Nc1ccc([As](=O)(O)O)c(O)c1	inactive: -12.7%
CC1CCNP(=O)(N(CCCl)CCCl)O1 (centres undefined)	inactive: -2.49%
COc1ccccc1OP(C)(=O)Nc1ccccc1 (centres undefined)	inactive: -3.04%
Cc1cc(SC(NC=O)C(Cl)(Cl)Cl)ncn1 (centres undefined)	inactive: 4.84%
O=P(Nc1ccccn1)(c1cccc2ccccc12)c1cccc2ccccc12	inactive: 5.61%
O=[N+]([O-])c1ccc(Nc2ccc(Oc3ccc([N+](=O)[O-])cc3[N+](=O)[O-])cc2)c([N+](=O)[O-])c1	inactive: -27.9%
CCOC(=O)Nc1cccc([As](=O)(O)O)c1	inactive: -15.3%
Cc1cc(C)cc(OP(C)(=O)Nc2ccc(SC(F)(F)F)cc2)c1 (centres undefined)	inactive: 27.2%
O=C(Nc1ccncc1[N+](=O)[O-])c1ccc([N+](=O)[O-])cc1[N+](=O)[O-]	inactive: -22.4%
O=C(COc1ccccc1)OC1CN2CCC1CC2 (centres undefined)	inactive: -32.5%
CCc1ccc(OP(C)(=O)N2CCN(c3ccc([N+](=O)[O-])cc3)CC2)cc1 (centres undefined)	inactive: 8.17%
COC(=O)C1(C)COP(=O)(N2CCCC2)OC1 (centres undefined)	inactive: -2.89%
CP(=O)(Oc1ccccc1)OC(c1ccccc1)C(F)(F)F (centres undefined)	inactive: 13.9%
CP(=O)(Nc1ccc(SC(F)(F)F)cc1)Oc1ccc(Cl)cc1 (centres undefined)	inactive: 13.3%
Cc1cccc(C)c1OP(C)(=O)Nc1ccc(SC(F)(F)F)cc1 (centres undefined)	inactive: 16.3%
CCC(C)N(CC(C)C)C(=S)SC(NC(C)=O)C(Cl)(Cl)Cl (centres undefined)	inactive: 4.12%
O=C(OC1CN2CCC1CC2)c1cccc([N+](=O)[O-])c1 (centres undefined)	inactive: 1.45%
O=[N+]([O-])c1cc([N+](=O)[O-])c(O)c([N+](=O)[O-])c1.c1ccc(Oc2ccncc2)cc1	inactive: -0.392%
CCOC(=O)c1ccc(NC(=O)C(C)(CCl)SC)cc1 (centres undefined)	inactive: -4.24%
